# Data from US7491489B2 (priority 2004, dated 2009).
# Tested on: SARS-CoV GZ50 strain
# Experiment: Peptide-mediated protection from cytopathic effects (CPE) of SARS-CoV infection in FRhK-4 cells
row,SMILES,Antiviral activity (overall statement)
1,CC[C@H](C)[C@H](NC(=O)[C@H](C)NC(=O)[C@@H](NC(=O)[C@H](CO)NC(=O)[C@@H](NC(=O)[C@H](CC(=O)O)NC(=O)[C@@H](NC(=O)[C@H](CS)NC(=O)[C@H](CC(N)=O)NC(=O)[C@@H](NC(=O)[C@H](CC(=O)O)NC(=O)[C@H](CCC(N)=O)NC(=O)[C@@H](N)Cc1ccc(O)cc1)C(C)C)[C@@H](C)O)C(C)C)[C@@H](C)O)C(=O)N[C@@H](Cc1c[nH]cn1)C(=O)N[C@@H](C)C(=O)N[C@@H](CC(=O)O)C(=O)N[C@@H](CCC(N)=O)C(=O)N[C@@H](CC(C)C)C(=O)N[C@H](C(=O)N1CCC[C@H]1C(=O)O)[C@@H](C)O [P6],Significant antiviral effects
2,CC[C@H](C)[C@H](NC(=O)CN)C(=O)NCC(=O)N[C@H](C(=O)N[C@H](C(=O)N[C@@H](CCC(N)=O)C(=O)N[C@@H](CC(N)=O)C(=O)N[C@H](C(=O)N[C@@H](CC(C)C)C(=O)N[C@@H](Cc1ccc(O)cc1)C(=O)N[C@@H](CCC(=O)O)C(=O)N[C@@H](CC(N)=O)C(=O)N[C@@H](CCC(N)=O)C(=O)N[C@@H](CCCCN)C(=O)N[C@@H](CCC(N)=O)C(=O)N[C@H](C(=O)N[C@@H](C)C(=O)N[C@@H](CC(N)=O)C(=O)N[C@@H](CCC(N)=O)C(=O)N[C@@H](Cc1ccccc1)C(=O)O)[C@@H](C)CC)C(C)C)[C@@H](C)O)C(C)C [P9],no antiviral activities
3,CC[C@H](C)[C@H](NC(=O)[C@H](CO)NC(=O)[C@H](Cc1ccccc1)NC(=O)[C@H](CC(N)=O)NC(=O)[C@@H](NC(=O)[C@@H]1CCCN1C(=O)[C@@H](NC(=O)[C@H](C)NC(=O)[C@@H](NC(=O)[C@@H](NC(=O)[C@H](CC(N)=O)NC(=O)[C@H](CC(N)=O)NC(=O)[C@@H](N)CO)[C@@H](C)O)[C@@H](C)CC)[C@@H](C)CC)[C@@H](C)O)C(=O)N[C@@H](CO)C(=O)N[C@H](C(=O)N[C@H](C(=O)N[C@H](C(=O)N[C@@H](CCC(=O)O)C(=O)N[C@H](C(=O)N[C@@H](CCSC)C(=O)O)C(C)C)[C@@H](C)O)[C@@H](C)O)[C@@H](C)CC [P7],no antiviral activities
4,CC[C@H](C)[C@H](NC(=O)[C@H](CCC(=O)O)NC(=O)[C@H](CO)NC(=O)[C@@H](NC(=O)[C@H](CCCCN)NC(=O)[C@@H]1CCCN1C(=O)[C@H](CC(=O)O)NC(=O)[C@H](CCCNC(=N)N)NC(=O)[C@@H](NC(=O)[C@H](CO)NC(=O)[C@H](CC(=O)O)NC(=O)[C@@H](NC(=O)[C@H](Cc1ccccc1)NC(=O)[C@H](CC(=O)O)NC(=O)[C@H](CO)NC(=O)[C@@H](NC(=O)[C@H](CC(=O)O)NC(=O)[C@@H](N)CCCNC(=N)N)C(C)C)[C@@H](C)O)C(C)C)[C@@H](C)O)C(=O)N[C@@H](CC(C)C)C(=O)N[C@@H](CC(=O)O)C(=O)O [P5],no antiviral activities
5,CC[C@H](C)[C@H](NC(=O)CNC(=O)[C@H](CC(C)C)NC(=O)[C@@H]1CCCN1C(=O)[C@H](CC(C)C)NC(=O)[C@H](CCCCN)NC(=O)[C@@H](N)Cc1ccccc1)C(=O)N[C@@H](CC(N)=O)C(=O)N[C@H](C(=O)N[C@H](C(=O)N[C@@H](CC(N)=O)C(=O)N[C@@H](Cc1ccccc1)C(=O)N[C@@H](CCCNC(=N)N)C(=O)N[C@@H](C)C(=O)N[C@H](C(=O)N[C@@H](CC(C)C)C(=O)N[C@H](C(=O)N[C@@H](C)C(=O)N[C@@H](Cc1ccccc1)C(=O)N[C@@H](CO)C(=O)O)[C@@H](C)O)[C@@H](C)CC)[C@@H](C)O)[C@@H](C)CC [P1],no antiviral activities
